The record followed here is PMC4011036, “Higher Desolvation Energy Reduces Molecular Recognition in Multi-Drug Resistant HIV-1 Protease” (Biology, 2012).

Assay [1] concerns four MDR protease variants. As to conditions: four clinical MDR isolates, enzyme inhibition assays, relative to NL4-3 (WT). From the text: HIV protease Forster Resonance Energy Transfer (FRET) substrate I used in the IC50 determination and substrate interference was purchased from AnaSpec, Inc. (Fremont, CA, USA). The US FDA-approved HIV-1 protease inhibitors were kindly provided by the NIH AIDS Research and Reference Reagent Program (www.aidsreagent.org). The CA/p2 pseudopeptide with a reduced scissile peptide bond [-ψ(CH2NH)-] was synthesized in the Department of Chemistry, Wayne State University. The nine substrate hepta-peptides were purchase from SynBioSci Corporation, Livermore, CA, USA. […] The IC50 determination was described previously. […] The protease concentration was adjusted to a substrate cleavage velocity of 5 Relative Fluorescence Units (RFU)/min in the absence of regular substrate. […] Upon the addition of the HIV-1 protease, the fluorescent signal emitted through the cleavage of the FRET substrate was recorded using SpectraMax M5 (Molecular Devices, Sunnyvale, CA, USA) at an excitation wavelength of 340 nm and an emission wavelength of 490 nm. The average velocity of FRET substrate cleavage in RFU/min was calculated based on fluorescent signal at 30 time point over 30 min. In the control experiment, the average velocity of FRET substrate cleavage was determined in the absence of regular substrates. […]

The target of assay [2] is T1, HIV-1 protease MDR 3761 (Human immunodeficiency virus type 1 group M subtype B, UniProt P12497, A559I/G561T/I503V/I552V/I572V/I581L/K508I/L498I/L507I/L551P/L578M/M534I/P567S/Q495K/T500A).
T1 construct: made in house; host or cells: E. coli (pET21b)
Briefly: HIV-1 protease inhibition (FRET substrate cleavage), MDR 3761. The format is biochemical. As to conditions: FRET substrate I, 0.1 M sodium acetate, 1.0 M NaCl, 1.0 mM EDTA, 1.0 mM DTT, 10% DMSO, 1 mg/mL BSA, pH 4.7, fluorescence 340/490 nm, read-out: IC50 of HIV-1 protease inhibitors.

For assay [3], the target named is T2, HIV-1 protease MDR 1385 (Human immunodeficiency virus type 1 group M subtype B, UniProt P12497, A559V/I581L/L498F/L551P/L577M/L578M/M524I/M534I/N525D/Q495K/R545K/V570T).
T2 construct: made in house; host or cells: E. coli (pET21b)
Nature of the assay: HIV-1 protease inhibition (FRET substrate cleavage), MDR 1385. The format is biochemical. As to conditions: FRET substrate I, 0.1 M sodium acetate, 1.0 M NaCl, 1.0 mM EDTA, 1.0 mM DTT, 10% DMSO, 1 mg/mL BSA, pH 4.7, fluorescence 340/490 nm, read-out: IC50 of HIV-1 protease inhibitors.

The target of assay [4] is T3, HIV-1 protease MDR 769 (Human immunodeficiency virus type 1 group M subtype B, UniProt P12497, A559V/I542V/I550V/I572V/L498I/L551P/L578M/M524V/M534L/Q495K/V570A).
T3 construct: made in house; host or cells: E. coli (pET21b)
Nature of the assay: HIV-1 protease inhibition (FRET substrate cleavage), MDR 769. It counts as biochemical. As to conditions: FRET substrate I, 0.1 M sodium acetate, 1.0 M NaCl, 1.0 mM EDTA, 1.0 mM DTT, 10% DMSO, 1 mg/mL BSA, pH 4.7, fluorescence 340/490 nm, read-out: IC50 of HIV-1 protease inhibitors.

The target in assay [5] is T4, HIV-1 protease NL4-3 (Human immunodeficiency virus type 1 group M subtype B, UniProt P12497, Q495K).
T4 construct: made in house; host or cells: E. coli (pET21b)
Nature of the assay: HIV-1 protease inhibition (FRET substrate cleavage), NL4-3 (WT). It counts as biochemical. The conditions noted are these: FRET substrate I, 0.1 M sodium acetate, 1.0 M NaCl, 1.0 mM EDTA, 1.0 mM DTT, 10% DMSO, 1 mg/mL BSA, pH 4.7, fluorescence 340/490 nm, read-out: IC50 of HIV-1 protease inhibitors.

The target in assay [6] is T5, HIV-1 protease MDR 807 (Human immunodeficiency virus type 1 group M subtype B, UniProt P12497, A559V/G536V/I542T/I550V/I581L/L498I/L551Q/M534I/Q495K/Q549N/R529K/T562A/V565I/V570A).
T5 construct: made in house; host or cells: E. coli (pET21b)
Briefly: HIV-1 protease inhibition (FRET substrate cleavage), MDR 807. It counts as biochemical. The conditions noted are these: FRET substrate I, 0.1 M sodium acetate, 1.0 M NaCl, 1.0 mM EDTA, 1.0 mM DTT, 10% DMSO, 1 mg/mL BSA, pH 4.7, fluorescence 340/490 nm, read-out: IC50 of HIV-1 protease inhibitors.

Molecules are shown by their SMILES.

Take `CCC[C@@]1(CCc2ccccc2)CC(O)=C([C@H](CC)c2cccc(NS(=O)(=O)c3ccc(C(F)(F)F)cn3)c2)C(=O)O1` [TPV, tipranavir]: the “resistance of MDR variants to inhibitors (in words)” value in assay [1] was “lower relative resistance”.

For the molecule `Cc1cccc(C)c1OCC(=O)N[C@@H](Cc1ccccc1)[C@@H](O)C[C@H](Cc1ccccc1)NC(=O)[C@H](C(C)C)N1CCCNC1=O` [LPV, lopinavir], the half-maximal inhibitory concentration (IC50) came out at 0.39 nM in assay [2]; 2.3 nM in assay [3]; 0.5 nM in assay [4]; 0.28 nM in assay [5]; 1.2 nM in assay [6].

The term IC50 denotes the concentration needed to halve the response being measured.
